The list shows a part of the results, in another mix than the full data. Activity calls are given as the source filed them. Cut-off read from the data, not from the text of the source: active = inhibition above about 10% (passing the limit was not always enough); inconclusive = no clear call, values can overlap the other calls.

The chains behind the UniProt entries cited, without tags or fusion partners. Where a name states a change or a piece, a line headed by the entry shows the natural chain unless it says otherwise.
UniProt P9WIQ1: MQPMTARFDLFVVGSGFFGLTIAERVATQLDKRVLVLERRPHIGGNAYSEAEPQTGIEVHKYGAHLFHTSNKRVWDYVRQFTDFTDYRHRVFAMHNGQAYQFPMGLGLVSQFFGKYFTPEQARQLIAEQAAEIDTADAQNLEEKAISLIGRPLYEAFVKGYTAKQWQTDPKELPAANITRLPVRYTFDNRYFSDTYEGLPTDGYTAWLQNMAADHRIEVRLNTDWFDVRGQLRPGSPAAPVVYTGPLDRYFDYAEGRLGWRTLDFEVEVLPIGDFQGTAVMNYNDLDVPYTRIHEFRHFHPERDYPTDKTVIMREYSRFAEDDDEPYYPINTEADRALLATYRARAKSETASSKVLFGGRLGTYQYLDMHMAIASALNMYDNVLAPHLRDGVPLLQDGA

In this assay the target is UDP-galactopyranose mutase (Mycobacterium tuberculosis (strain ATCC 25618 / H37Rv)) (UniProt P9WIQ1). Description: M. tuberculosis UGM enzyme inhibitors, primary screen, biochemical, fluorescence polarization, single point (AID 504406). The following applies: purified UGM, fluorescence polarization probe displacement; at 10 µM; active compounds read high. A general note: In fluorescence polarisation assays a small probe gives low polarisation when free and higher when bound to something large.
Turning to `CC(C)/C=N\N=C(\N)N[N+](=O)[O-]`, the inhibition is inactive: -1.72%.
The same measure for `CN(C(=O)Cc1ccc(Cl)c(Cl)c1)[C@@H]1CCCC[C@H]1N1CCCC1`: inactive: -2.3%.
Take `CC1(CBr)Cn2c(nc3ccccc3c2=O)S1` (stereo not given): the inhibition was inactive: -0.719%.
`O=[As](O)(c1ccccc1Br)c1ccccc1Br`: the inhibition was inactive: -0.198%.
For `CCOP(=O)(NC(=NC(C)c1ccccc1)NC(C)c1ccccc1)OCC` (stereo not given), the inhibition was inactive: -0.0484%.
In the case of `O=P1(Nc2ccccn2)COc2ccccc2OC1`, the inhibition was inactive: 1.47%.
As to `CCC1=CC2Cc3nc4ccc(Cl)cc4c(N)c3C(C1)C2` (stereo not given), the inhibition was inactive: 0.227%.
As for `CN(CCCl)Cc1cc(Cl)c(NC2=NCCN2)c(Cl)c1`, the inhibition was inactive: -2.67%.
In the case of `CCOP(=O)(Nc1ccc(C)cn1)OCC`, the inhibition is inactive: 1.43%.
Regarding `CC(C)(C)C(=O)NC(Sc1ncccn1)C(Cl)(Cl)Cl` (stereo not given), the inhibition is inactive: -2.42%.
Turning to `Clc1n[nH]nc1-c1nn[nH][15n]1`, the inhibition is inactive: 1.33%.
Consider `O=P1(Nc2ncccn2)COc2ccccc2OC1`, for which the inhibition is inactive: 0.693%.
The same measure for `Nc1cccc([As](=O)(O)c2ccccc2)c1`: inactive: -0.66%.
For the compound `O=P1(Nc2ccc(Br)cn2)COc2ccccc2OC1`, the inhibition was inactive: 0.659%.
The same measure for `NS(=O)(=O)c1cccc(NC(=O)COC(=O)C(O)(c2ccccc2)c2ccccc2)c1`: inactive: 1.62%; for `O=[As](O)(c1cccs1)c1cccs1`: inactive: -2.08%.
The same measure for `Cc1ccc(OCC(=O)OC2CN3CCC2CC3)cc1` (stereo not given): inactive: 3.8%; for `CC1CCC(C(C)C)C(OP(=O)(Nc2ccccn2)c2ccccc2)C1` (stereo not given): inactive: 0.39%.
For `Cc1ccc(C(=O)OC2CN3CCC2CC3)cc1` (stereo not given), the inhibition was inactive: -0.165%.
In the case of `Cc1nn(-c2ccccc2)c2c1P(=O)(N1CCOCC1)N(C)C(c1ccccc1)=N2` (stereo not given), the inhibition was inactive: -0.917%.
For `CN(C)C1(CNC(=O)c2ccc(S(C)(=O)=O)cc2)CCCCC1` the value was inactive: -0.823%.
The same measure for `O=C(/C=C/c1ccccc1)OC1CN2CCC1CC2` (stereo not given): inactive: -0.72%; for `CCOC(=O)Nc1cccc([As](=O)(O)O)c1`: inactive: 0.298%; for `O=P(Nc1ccccn1)(c1cccc2ccccc12)c1cccc2ccccc12`: inactive: -1.32%.
As to `Cc1cc(SC(NC=O)C(Cl)(Cl)Cl)ncn1` (stereo not given), the inhibition was inactive: -0.653%.
With `O=[N+]([O-])c1ccc(Nc2ccc(Oc3ccc([N+](=O)[O-])cc3[N+](=O)[O-])cc2)c([N+](=O)[O-])c1`, the inhibition was inactive: -2.38%.
The same measure for `CCOC(=O)Nc1ccc([As](=O)(O)O)c(O)c1`: inactive: 1.67%; for `Cc1cc(SC(NC(=O)c2ccccc2)C(Cl)(Cl)Cl)nc(C(C)C)n1` (stereo not given): inactive: 1.3%; for `O=C(OC1CN2CCC1CC2)c1cccc([N+](=O)[O-])c1` (stereo not given): inactive: 0.0985%.
For `CCOC(=O)c1ccc(NC(=O)C(C)(CCl)SC)cc1` (stereo not given) the value was inactive: -4%; for `CCC(C)N(CC(C)C)C(=S)SC(NC(C)=O)C(Cl)(Cl)Cl` (stereo not given), inactive: -0.95%.
For `COP1(=S)c2c(C)nn(CCC#N)c2N=C(c2ccc(F)cc2)N1C` (stereo not given) the value was inactive: -1.39%; for `O=C(Nc1ccncc1[N+](=O)[O-])c1ccc([N+](=O)[O-])cc1[N+](=O)[O-]`, inactive: 1.09%; for `O=C(COc1ccccc1)OC1CN2CCC1CC2` (stereo not given), inactive: 0.679%.
Consider `COc1ccc(N/C(=N/P(=O)(N2CCOCC2)N2CCOCC2)N2CCOCC2)cc1`, for which the inhibition was inactive: -1.19%.
The same measure for `Cc1c2c(nc3ccccc13)SC(C(Cl)Cl)C2` (stereo not given): inactive: 2.1%.
In the case of `Cc1cc(=O)[nH]c(N[N+](=O)[O-])n1`, the inhibition is inactive: 1.62%.
Take `O=C(OC1CN2CCC1CC2)C12CC3CC(CC(C3)C1)C2` (stereo not given): the inhibition is inactive: -1.44%.
In the case of `COc1cc(I)ccc1[As](=O)(O)O`, the inhibition is inactive: 3.59%.
For the compound `COc1ccc2nc(NP(=O)(c3ccccc3)c3ccccc3)sc2c1`, the inhibition was inactive: -0.264%.
The same measure for `ClCCSc1nnc(-c2cccnc2)o1`: inactive: -1.37%.
The same measure for `CC(C)c1ccc(OP(=O)(Nc2ccccn2)Oc2ccccc2F)cc1` (stereo not given): inactive: 0.611%; for `O=[N+]([O-])c1cc([N+](=O)[O-])c(-c2ccn[nH]2)s1`: inactive: -0.444%; for `CCN(CC)C(=S)SC(NC=O)C(Cl)(Cl)Cl` (stereo not given): inactive: 2.84%.
Turning to `CC(C)NC(=O)NP(=O)(Oc1ccccc1)Oc1ccccc1`, the inhibition was inactive: 0.226%.
As to `COc1cc(C(=O)NCC2(N3CCOCC3)CCCCC2)ccc1OCC(C)C`, the inhibition is inactive: -2.28%.
As to `O=[As](O)(c1ccc(O)cc1)c1ccccc1O`, the inhibition was inactive: -1.31%.
In the case of `C[As](=O)(O)c1cccc(C(=O)O)c1`, the inhibition was inactive: 2.11%.
On to `Cc1ccc(OP(=O)(Nc2ccc([N+](=O)[O-])cn2)Oc2ccc(C)cc2)cc1`, for which the inhibition is inactive: -1.46%.
For `Cc1ccc2nc3c(c(C)c2c1)CC(C(Cl)Cl)S3` (stereo not given), the inhibition was inactive: 2.74%.

By inhibition is commonly meant the relative decrease from the control value, in per cent.

(Values after PubChem BioAssay AID504406 (Broad Institute, 2011).)
